Measured values from several laboratories, pooled; numbers as filed in NIAID ChemDB.

Common to all: target-level tests

Lines come from different laboratories, so protocols vary. Blank or dashed fields: not listed here. ICn is the concentration giving n% inhibition. Inhibition is in % at the dose shown (toxicity tests: loss of growth or viability).

compound,read by,protein,read-out,organism,strain or isolate,tested at,result
CC(=O)N[C@@H]1[C@@H](N=C(N)N)C=C(C(=O)O)O[C@H]1C(F)(F)[C@H](O)CO,,Sialidase,IC50,Influenza A virus,A/PR/8/34,,0.04 µg/mL
O=C(P(=O)(O)O)P(=O)(O)O,,RNA-dependent RNA polymerase,IC50,Influenza virus,,,280 µM
CC(=O)N[C@H]1[C@H]([C@H](F)[C@H](O)CO)OC(C(=O)O)=C[C@@H]1N=C(N)N,,Sialidase,IC50,Influenza A virus,A/PR/8/34,,0.0008 µg/mL
COCON1C(=O)[C@H]([C@H](O)c2ccc(F)cc2)N(Cc2ccc(OC)cc2)[C@@H](CC(C)C)C1=O,,Transcriptase,IC50,Influenza A virus,,,>200 µM
CC(C)(C)NC(=O)NC(=S)NC(=O)COc1ccc(Cl)cc1Cl,,Neuraminidase,IC50,Influenza A virus,H1N1,,0.69 µM
CCC(CC)Nc1cc(C(=O)O)ccc1N1C(=O)CCC1(CO)CN=[N+]=[N-],,Neuraminidase,IC50,Influenza A virus,Subtype N1,,268 µM
CC(=O)Nc1c(N=C(N)N)cc(C(=O)O)cc1[C@H](O)[C@H](O)CO,,Neuraminidase,Ki,Influenza A virus,Influenza A/Shandong/09/93 (H3N2),,8 µM
COCON1C(=O)/C(=C/C(C)C)N(Cc2ccc(OC)cc2)[C@@H](Cc2ccccc2)C1=O,,Transcriptase,IC50,Influenza A virus,,,>200 µM
O=C(O)CCP(=O)(O)O,,RNA-dependent RNA polymerase,IC50,Influenza virus,,,>500 µM
COCON1C(=O)[C@H]([C@H](OS(C)(=O)=O)c2ccccc2F)N(Cc2ccc(OC)cc2)[C@@H](CC(C)C)C1=O,,Transcriptase,IC50,Influenza A virus,,,>200 µM
CCC(CC)[C@H](NC(C)=O)[C@@H]1[C@H](O)[C@@H](C(=O)O)C[C@H]1N=C(N)N,,Influenza virus neuraminidase,IC50,Influenza A virus,WILD TYPE (1190,,0.0011 µM
COCON1C(=O)[C@H]([C@H](O)C(C)C)N(Cc2ccc(OC)cc2)[C@@H](CC(C)C)C1=O,,Transcriptase,IC50,Influenza A virus,,,>200 µM
CCCCCCCCCCCCCCCC(=O)N[C@@H]([C@@H]1OC(C(=O)O)=C[C@H](N=C(N)N)[C@H]1NC(C)=O)[C@H](O)CO,,Sialidase,IC50,Influenza A virus,A/PR/8/34,,0.479 µg/mL
CCC(CC)Nc1cc(C(=O)O)ccc1NC(C)=O,,Neuraminidase,IC50,Influenza B virus,B/LEE/40,,2300 µM
Cc1cc(=O)[nH]c(NC(=S)NC(=O)c2ccc(-c3ccccc3Cl)o2)n1,,Neuraminidase,IC50,Influenza A virus,H1N1,,2.8 µM
CC(=O)N[C@H]1[C@H]([C@H](O)[C@H](O)CO)OC(C(=O)O)=C[C@@H]1N,,Neuraminidase,Ki,Influenza B virus,,,0.1 µM
COCON1C(=O)[C@H]([C@H](OS(C)(=O)=O)C(C)C)N(Cc2ccc(OC)cc2)[C@@H](CC(C)C)C1=O,,Transcriptase,IC50,Influenza A virus,,,>200 µM
O=C(O)CP(=O)(O)O,,RNA-dependent RNA polymerase,IC50,Influenza virus,,,300 µM
CC(=O)Nc1c(O)cc(C(=O)O)cc1[N+](=O)[O-],,Neuraminidase,IC50,Influenza B virus,Memphis/3/89,,1000 µM
COCON1C(=O)/C(=C/c2ccc(F)cc2)N(Cc2ccc(OC)cc2)[C@@H](Cc2ccccc2)C1=O,,Transcriptase,IC50,Influenza A virus,,,>200 µM
O=P(O)(O)P(=O)(O)O,,RNA-dependent RNA polymerase,IC50,Influenza virus,,,>500 µM
COCON1C(=O)[C@H]([C@@H](O)c2ccccc2F)N(Cc2ccc(OC)cc2)[C@@H](CC(C)C)C1=O,,Transcriptase,IC50,Influenza A virus,,,>200 µM
CC(C)[C@H](C(=O)NC(=S)Nc1nc(Cl)cc(Cl)n1)c1ccc(Cl)cc1,,Neuraminidase,IC50,Influenza A virus,H1N1,,0.27 µM
CC(=O)N[C@H]1[C@H]([C@H](N)[C@H](O)CO)OC(C(=O)O)=C[C@@H]1N=C(N)N,,Sialidase,IC50,Influenza A virus,A/PR/8/34,,0.0374 µg/mL
CCC(CC)O[C@@H]1C(SC)=C(C(=O)O)C[C@H](N)[C@H]1NC(C)=O,,Influenza virus neuraminidase,IC50,Influenza A virus,A/PR/8/34,,3.1 µM
CC(O)(C(=O)O)P(=O)(O)O,,RNA-dependent RNA polymerase,IC50,Influenza virus,,,>500 µM
COCON1C(=O)[C@H]([C@H](OS(C)(=O)=O)C(C)C)N(Cc2ccc(OC)cc2)[C@@H](Cc2ccccc2)C1=O,,Transcriptase,IC50,Influenza A virus,,,>200 µM
CCCC(C(=O)O)P(=O)(O)O,,RNA-dependent RNA polymerase,IC50,Influenza virus,,,>500 µM
CC(=O)N[C@H]1[C@H]([C@H](O)[C@H](O)CO)OC(C(=O)O)=C[C@@H]1N,,Sialidase,IC50,Influenza A virus,H3N2 A/AICHI/2/68,,0.24 µM
CC(C(=O)O)P(=O)(O)O,,RNA-dependent RNA polymerase,IC50,Influenza virus,,,>500 µM
CC(N)C12CC3CC(CC(C3)C1)C2,nucleotide incorporation,Virion transcriptase,inhibition,Influenza A virus,A/PR/1/74 rimantadine-susceptible,200 µg/mL,57%
CCC(CC)Nc1cc(C(=O)O)ccc1N1C(=O)CCC1(CO)CCO,,Neuraminidase,IC50,Influenza B virus,B/LEE,,>1000 µM
CCCCCCCCCC(C(=O)O)P(=O)(O)O,,RNA-dependent RNA polymerase,IC50,Influenza virus,,,>500 µM
COc1cc(C)nc(NC(=S)NC(=O)c2ccc(-c3ccc([N+](=O)[O-])cc3)o2)n1,,Neuraminidase,IC50,Influenza A virus,H1N1,,2.3 µM

Again, the opening 2 rows:

| compound | read by | protein | read-out | organism | strain or isolate | tested at | result |
|---|---|---|---|---|---|---|---|
| CC(=O)N[C@@H]1[C@@H](N=C(N)N)C=C(C(=O)O)O[C@H]1C(F)(F)[C@H](O)CO |  | Sialidase | IC50 | Influenza A virus | A/PR/8/34 |  | 0.04 µg/mL |
| O=C(P(=O)(O)O)P(=O)(O)O |  | RNA-dependent RNA polymerase | IC50 | Influenza virus |  |  | 280 µM |